This passage reports Kd results from paper doi:10.1101/2024.06.06.597810 (2024).

For the assay, the target named is T1, Biotin-labeled BtRf-BetaCoV stem helix peptide (BtRf-BetaCoV, biotin (position not given)).
T1 chain: DSFKQELDKYFKNH

B1: S2P6 UCA VH Y32Q Fab (Fab, V domains shown)
VH: QVQLVQSGAEVKKPGASVKVSCKASGYTFTSQYMHWVRQAPGQGLEWMGIINPSGGSTSYAQKFQGRVTMTRDTSTSTVYMELSSLRSEDTAVYYCARGSPKGAFDYWGQGTLVTVSS
VL: not shown
In turn, B1 registered a Kd of 2560 nM.

B2: S2P6 UCA VH M48I Fab (Fab, V domains shown)
VH: QVQLVQSGAEVKKPGASVKVSCKASGYTFTSYYMHWVRQAPGQGLEWIGIINPSGGSTSYAQKFQGRVTMTRDTSTSTVYMELSSLRSEDTAVYYCARGSPKGAFDYWGQGTLVTVSS
VL: not shown
B2 gave a Kd of 938 nM.

B3: S2P6 UCA VH Y32Q/M48I double mutant Fab (Fab, V domains shown)
VH: QVQLVQSGAEVKKPGASVKVSCKASGYTFTSQYMHWVRQAPGQGLEWIGIINPSGGSTSYAQKFQGRVTMTRDTSTSTVYMELSSLRSEDTAVYYCARGSPKGAFDYWGQGTLVTVSS
VL: not shown
Molecule B3 showed a dissociation constant (Kd) of 189 nM.

B4: S2P6 UCA VH S56H Fab (Fab, V domains shown)
VH: QVQLVQSGAEVKKPGASVKVSCKASGYTFTSYYMHWVRQAPGQGLEWMGIINPSGGHTSYAQKFQGRVTMTRDTSTSTVYMELSSLRSEDTAVYYCARGSPKGAFDYWGQGTLVTVSS
VL: not shown
For the molecule B4, binding was characterised by a dissociation constant (Kd) of 865 nM.
